Measurements: EP1210336B1, “SUBSTITUTED BENZIMIDAZOLES AS NON-NUCLEOSIDE INHIBITORS OF REVERSE TRANSCRIPTASE” (THE UNITED STATES OF AMERICA, as represented by the …, priority 1999, dated 2001)
A number of entries come with more than one value. The list is limited to them. An entry can have further records. Values given together differ for a reason that is not stated; some may be repeats, others may stem from another dose, organism or construct than stated.

System: HIV-1 variant K101E
Assay: Cytopathic cell killing assay, cross-resistance profile, infected MT-4 cells
Format: cell-based
Details: Table 10 (values in µM); isolate K101E; listed as NH2
From the text: In these Tables, antiviral data are reported as the quantity of drug in µM required to reduce cell killing or virus production by 50% (EC50). The various HIV isolates tested in the Figures are those corresponding to wild-type virus (NL4-3) and the other strains listed by their RT mutations. The three 4xAZT isolates included in the Figures represent AZT drug-resistant variants. For example, the 4xAZT/L100I isolate has five mutations: four mutations confer increased resistance to AZT, and the other mutation is located within the NNRTI binding pocket. TZB and nevir. (nevirapine) are two well-known NNRTIs, included in this experiment for comparison purposes. […]
In this Example, the antiviral and cellular toxicity of NNRTIs was investigated, using the cytopathic cell killing assay described by Yang (Yang et al., "Characteristics of a Group of Non-nucleoside Reverse Transcriptase Inhibitors with Structural Diversity and Potent Anti-Human Immunodeficiency Virus Activity," Leukemia 9:S75-S85 [1995]). […] The cells were then infected with HIV virus (either mutant or WT), at a multiplicity of infection (MOI) previously determined to provide complete cell killing by 6 days of culture post-infection (e.g., MOI of 0.01-0.05). […]

Nc1cccc2c1nc(-c1c(F)cccc1F)n2Cc1c(F)cccc1F
EC50: > 50 µM and > 20 µM
